Measurements taken from patent US9534007B2, “Methods and compositions for treatment of cyanide and hydrogen sulfide toxicity” (dated 2017).

What was measured:
[1] = Lethal cyanide poisoning in swine, intravenous antidote one minute post apnea; conditions: for pH: arterial blood; for pH / Lactate / bicarbonate: at 60 min; for animals that died before completion of the experiment: between antidote at one min after onset of apnea and 60 min later, N = 10 per group; for animals in which cyanide was not detected: whole blood, immediately after treatment
[2] = Lethal rabbit model of sulfide poisoning, continuous intravenous NaSH infusion; conditions: intravenous antidote; NaSH 3 mg/min up to 90 min; cobinamide and hydroxocobalamin 25 mg/kg, sodium nitrite 3.5 mg/kg
[3] = Rescue of mice from sulfide gas exposure (15-25 model), intraperitoneal antidote
[4] = 2.67 ppt H2S, CbiS2O3 7.5 μmole, hydroxycobalamin 25 μmole, sodium thiosulfate 7.5 mole, 60 min observation, 6 mice per group (FIG. 25)
[5] = cobinamide 7.5 μmol (given as the thiosulfate derivative), hydroxocobalamin 25 μmol, equivalent thiosulfate dose, 5 mice per group (FIG. 24)
[6] = cyanide-poisoned swine, 60 min after IV bolus, hydroxocobalamin 65 mg/kg, dinitrocobinamide 12.5 mg/kg

Molecule	average survival time [2]	survival rate [3, 4]	survival rate [3, 5]	pH [1]	Lactate [1]	bicarbonate [1]	animals that died before completion of the experiment [1]	survival [1, 6]	Mean arterial pressure (MAP) ([1]; end of the experiment)	animals in which cyanide was not detected [1]	other results
O=NO	37 min	–	–	–	–	–	–	–	–	–	survival ([1]; sodium nitrite only, same amount as present in the dinitrocobinamide, five animals): None of these animals survived
O=S(O)(O)=S	–	17%	20%	–	–	–	–	–	–	–	–
cobinamide	84 min	–	80%	–	–	–	–	–	–	–	–
cobinamide thiosulfate	–	83%	–	–	–	–	–	–	–	–	–
dinitrocobinamide	81 min	–	–	7.44	1.5 mmol/L	28 mEq/L	one animal	90%	71±10 mm Hg	7/10	systolic blood pressure ([1]; end of the experiment): 91±15.1 mm Hg; potency relative to hydroxocobalamin (dose required to rescue swine) ([1]; milligram per kilogram basis): five times more hydroxocobalamin than cobinamide
hydroxocobalamin	41 min	17%	20%	7.44	1.2 mmol/L	28 mEq/L	One animal	90%	88±15.2 mm Hg	10/10	–
